Measured values from several laboratories, pooled; numbers as filed in NIAID ChemDB.

All rows: tests in culture; organism: HIV-1; endpoint: EC50

Rows are shuffled and stem from different studies. An empty or dashed field is not shown. ECn: concentration that inhibits the pathogen or its effect by n%. Two numbers with a dash give a range or band.

SMILES | strain or isolate | changes | setting | cell line | value
CC(C)(C)NC(=O)[C@@H]1C[C@@H]2CCCC[C@@H]2CN1C[C@@H](O)[C@H](Cc1ccccc1)NC(=O)[C@H](CC(N)=O)NC(=O)c1ccc2ccccc2n1 | NL4-3 | L10F V32I M46I I45M A71V I84V APV resistant |  | MT-4 | 0.09 µM
Cc1cn([C@@H]2O[C@H](CO[Si](C)(C)C(C)(C)C)C3(OS(=O)(=O)C=C3N)[C@H]2O[Si](C)(C)C(C)(C)C)c(=O)n(CCBr)c1=O |  |  |  |  | 0.03–0.76 µM
Cc1cn([C@H]2C=C[C@@H](CO)O2)c(=O)[nH]c1=O |  |  |  | MM + M/M | 0.25 µM
NC(=O)c1cnnn1C1OC(CO)C(O)C1F |  |  |  |  | >100 µM
CC(C)c1cc(=O)oc2c3c(c4c(c12)OC(C)(C)C=C4)OC(C)C(C)C3=O | RF |  |  | CEM + CEM-SS | 5.57 µM
O=C(O)P(=O)(O)O | HX88C (RT-W88C) | RT-W88C |  | HT4LACZ-1 + HT4 LacZ-1 | 49.5 µM
CC(C)c1cc2c(c(O)c1O)[C@@]1(C(=O)O)CCCC(C)(C)C1CC2 | clinical isolate 1(A MDR X4) | PR-L10I I15V E35D N37E K45R I54V L63P A71V V82T L90M I93L C95F |  | PBMC | >1 µM
CC1=C(C(=O)Nc2ccc(Cl)c(C(=O)OC(C)C)c2)SCCO1 | RF |  |  | CEM + CEM-SS | 0.18 µM
CC(C)=CCN1c2cc(Cl)cc3[nH]c(=S)n(c23)C[C@@H]1C |  | RT-M41L T215Y A98G |  | MT-4 | <0.8 µM
CC(C)=CCOc1cc(NC(=S)c2ccoc2C)ccc1Cl | IIIB |  |  | CEM + CEM-SS | 0.01 µM
CO[P@](=O)(c1cc(C)cc(/C=C/C#N)c1)c1c(C(N)=O)[nH]c2ccc(Cl)c(F)c12 | WT (NL4-3) |  |  | PBMC | 0.0015 µM
O=C1O[C@H]2[C@@H]3OC(=O)c4cc(O)c(O)c(O)c4-c4c(cc(O)c(O)c4O)C(=O)OC[C@H]2O[C@@H](OC(=O)c2cc(O)c(O)c(O)c2)[C@@H]3OC(=O)c2cc(O)c(O)c3c2[C@@H]2C1=CC(=O)[C@](O)(O3)C2(O)O | NNRTI-resistant (RT Y181C) ARP1013 | RT-Y181C |  | MAGI | 2.1 µg/mL
Cc1cn([C@H]2C[C@H](N=[N+]=[N-])[C@@H](CO)O2)c(=O)[nH]c1=O |  |  |  | MM + M/M | 0.01 µM
CC[C@H](C)[C@H]1NC(=O)[C@@H](NC(=O)[C@@H](CC(C)C)N(C)C(=O)c2cc3ccccc3s2)[C@@H](C)OC(=O)[C@H](Cc2ccc(OC)cc2)N(C)C(=O)[C@@H]2CCCN2C(=O)[C@H](CC(C)C)NC(=O)[C@H](C(C)C)OC(=O)C[C@@H]1O | NL4-3 |  |  | PBMC | 16.7 µM
Cc1cn([C@@H]2O[C@H](CO[Si](C)(C)C(C)(C)C)C3(OS(=O)(=O)C=C3N)[C@H]2O[Si](C)(C)C(C)(C)C)c(=O)n(CC2CO2)c1=O |  |  |  |  | 0.03–0.76 µM
Cc1nnc(C(=O)NC(C)(C)c2nc(C(=O)NCc3ccc(F)cc3)c(O)c(=O)n2C)o1 | NL4-3 | +Vpx |  | MDM | 0.031 µM
COC(=O)N[C@H](C(=O)N[C@@H](Cc1ccccc1)[C@@H](O)CN(Cc1ccc(-c2ccccn2)cc1)NC(=O)[C@@H](NC(=O)OC)C(C)(C)C)C(C)(C)C | NL4-3 |  |  | MT-2 | 0.00158 µM
O=c1[nH]cnc2c1ncn2[C@H]1CC[C@@H](CO)O1 | NL4-3 | +Vpx |  | MT-4 | 2.692 µM
C[C@@H](Cn1cnc2c(N)nc(N)nc21)OCP(=O)(OCOC(=O)C(C)(C)C)OCOC(=O)C(C)(C)C | IIIB |  |  | MT-2 | 0.2 µM
Nc1nc2c(ncn2[C@H]2CO[C@@H](CO)O2)c(=O)[nH]1 | IIIB |  |  | Jurkat cells | 0.34 µM
Cc1cn([C@H]2C[C@H](N=[N+]=[N-])[C@@H](CO)O2)c(=O)[nH]c1=O | NL4-3 | INTG-G140S |  | MT-2 | 0.03 µM
Cc1cn([C@H]2C[C@H](N=[N+]=[N-])[C@@H](CO)O2)c(=O)[nH]c1=O |  | Didanosine-resistant (RT L74V) |  | MT-4 | 0.002 µM
Cc1c(O)cccc1C(=O)N[C@@H](CSc1ccccc1)[C@H](O)CN1C[C@H]2CCCC[C@H]2C[C@H]1C(=O)NC(C)(C)C | NL4-3 | INTG-G140S |  | MT-2 | 0.03 µM
Oc1cc(O)cc([C@@H]2c3c(/C=C/c4ccc(O)c(O)c4)cc(O)cc3O[C@H]2c2ccc(O)c(O)c2)c1 | IIIB |  |  |  | 7 µg/mL
O=c1[nH]cnc2c1ncn2[C@H]1CC[C@@H](CO)O1 |  |  |  | MM + M/M | 0.05 µM
NC(=O)c1cnnn1[C@@H]1O[C@@H](CO)[C@H](O)[C@H]1F |  |  |  |  | >100 µM
Nc1nc(N)c2ncn(CCOCP(=O)(O)O)c2n1 |  |  |  | Primary lymphocytes + Lymphocytes | 0.94 µM
CC(C)(C)NC(=O)c1ccccc1SC[C@H](O)[C@H](Cc1ccccc1)NC(=O)[C@H](CC(N)=O)NC(=O)c1ccc2ccccc2n1 |  |  |  | MT-2 | 4.38 µg/mL
Cc1cn([C@H]2C[C@H](N=[N+]=[N-])[C@@H](CO)O2)c(=O)[nH]c1=O | HX |  |  | HT4LACZ-1 + HT4 LacZ-1 | 0.024 µM
C[C@@]1(CO)CC[C@H](c2c[nH]c3c(N)ncnc23)C1 |  |  |  | MT-4 | 14.7 µM
Cc1cn([C@@H]2O[C@H](CO[Si](C)(C)C(C)(C)C)C3(OS(=O)(=O)C=C3N)[C@H]2O[Si](C)(C)C(C)(C)C)c(=O)n(CC2CC2)c1=O |  |  |  |  | 0.03–0.76 µM
Cc1cn([C@H]2C[C@H](N=[N+]=[N-])[C@@H](COP(=O)(O)O)O2)c(=O)[nH]c1=O | IIIB |  |  | MT-4 | 0.022 µM
CC(C)c1cc(=O)oc2c3c(c4c(c12)OC(C)(C)C=C4)O[C@@H](C)[C@H](C)C3=O | RF |  |  | CEM + CEM-SS | 15.9 µM
Nc1ncnc2c1ncn2CCOCP(=O)(O)O |  |  |  | Primary lymphocytes + Lymphocytes | 2.5 µM
Cc1cn([C@H]2C=C[C@@H](CO)O2)c(=O)[nH]c1=O | NL4-3 | +Vpx |  | MDM | 2.009 µM
[N-]=[N+]=N[C@H]1C[C@H](n2cc(/C(Br)=C\I)c(=O)[nH]c2=O)O[C@@H]1CO |  |  |  | PBMC | 1.1 µM
C[C@H](Cn1cnc2c(N)ncnc21)OCP(=O)(O)O | IIIB |  |  | MT-2 | 11 µM
CC(C)CN(C[C@@H](O)[C@H](Cc1ccccc1)NC(=O)O[C@H]1CO[C@H]2OCC(F)(F)[C@H]21)S(=O)(=O)c1ccc(N)cc1 | NL4-3 |  |  | MT-4 | 0.0037 µM
CC(C)c1cc(=O)oc2c3c(c4c(c12)OC(C)(C)C=C4)C[C@H](C)[C@@H](C)[C@@H]3O | SKI |  |  | CEM + CEM-SS | 0.09 µM
[N-]=[N+]=NC1OC(COC(=O)c2ccccc2)C(OC(=O)c2ccccc2)C1F |  |  |  |  | >100 µM
CNC(=O)Cn1c(=O)c(C)cn([C@@H]2O[C@H](CO[Si](C)(C)C(C)(C)C)C3(OS(=O)(=O)C=C3N)[C@H]2O[Si](C)(C)C(C)(C)C)c1=O |  |  |  |  | 0.03–0.76 µM
C[C@H](Cn1cnc2c(N)ncnc21)OCP(=O)(OCOC(=O)C(C)(C)C)OCOC(=O)C(C)(C)C | IIIB |  |  | MT-2 | 0.5 µM
Cc1cn([C@H]2C[C@H](N=[N+]=[N-])[C@@H](CO)O2)c(=O)[nH]c1=O | RF |  |  | MT-2 | 0.022 µM
Cc1cn([C@@H]2O[C@H](CO[Si](C)(C)C(C)(C)C)C3(OS(=O)(=O)C=C3N)[C@H]2O[Si](C)(C)C(C)(C)C)c(=O)n(/C=C/CO)c1=O |  |  |  |  | 0.03–0.76 µM
COC(=O)CCC/C=C(\c1cc(C)c(OC)c(C(=O)OC)c1)c1cc(Cl)c(OC)c(C(=O)OC)c1 | RF |  |  | CEM + CEM-SS | 0.02 µM
Fc1cccc(F)c1C1SCc2nc3ccccc3n21 |  |  |  |  | 3.4 µM
CCOC(=O)c1cnnn1[C@@H]1O[C@@H](COC(=O)c2ccccc2)[C@H](OC(=O)c2ccccc2)[C@H]1F |  |  |  |  | >100 µM
CCCc1cc(=O)oc2c3c(c4c(c12)OC(C)(C)C=C4)O[C@@H](C)[C@H](C)[C@@H]3O | UC781-RS(RT-Y181C | RT-Y181C |  |  | <0.15 µM
CC(C)=CCN1Cc2cc(Cl)cc3[nH]c(=S)n(c23)C[C@@H]1C |  |  |  | Primary lymphocytes + Lymphocytes | 0.04 µg/mL
Cc1cn([C@@H]2O[C@H](CO[Si](C)(C)C(C)(C)C)C3(OS(=O)(=O)C=C3N)[C@H]2O[Si](C)(C)C(C)(C)C)c(=O)n(CC(=O)O)c1=O |  |  |  |  | 0.03–0.76 µM
C[C@H](Cn1cnc2c(N)nc(N)nc21)OCP(=O)(O)O |  |  |  | Primary lymphocytes + Lymphocytes | 0.15 µM
O=c1[nH]c(=O)n([C@H]2C[C@H](F)[C@@H](CO)O2)cc1/C(Cl)=C/I |  |  |  | PBMC | 4.9 µM
C[C@H](Cn1cnc2c(N)ncnc21)OCP(=O)(O)O | NL4-3 |  |  | MT-4 | 2.877 µM
CC(=O)c1ccc(C)cc1NC(C(N)=O)c1c(Cl)cccc1Cl | UC781-RS(RT-Y181C | RT-Y181C |  |  | >1 µM
CCOC(=O)/C([O-])=C/[P+](c1ccccc1)(c1ccccc1)c1ccccc1 |  |  |  |  | >100 µM
COC(=O)/C=C/n1c(=O)c(C)cn([C@@H]2O[C@H](CO[Si](C)(C)C(C)(C)C)C3(OS(=O)(=O)C=C3N)[C@H]2O[Si](C)(C)C(C)(C)C)c1=O |  |  |  |  | 0.03–0.76 µM
[N-]=[N+]=N[C@H]1C[C@H](n2cc(/C(I)=C\I)c(=O)[nH]c2=O)O[C@@H]1CO |  |  |  | PBMC | 3.4 µM
Cc1cn([C@@H]2O[C@H](CO[Si](C)(C)C(C)(C)C)C3(OS(=O)(=O)C=C3N)[C@H]2O[Si](C)(C)C(C)(C)C)c(=O)n(Cc2ccccc2)c1=O |  |  |  |  | 0.03–0.76 µM
CC(C)c1cc(=O)oc2c3c(c4c(c12)OC(C)(C)C=C4)O[C@H](C)[C@@H](C)C3=O | SKI |  |  | CEM + CEM-SS | 3.41 µM
Cc1cn([C@H]2C[C@H](N=[N+]=[N-])[C@@H](COCP(=O)(O)O)O2)c(=O)[nH]c1=O |  |  |  | MT-4 | ~1 µM
COc1ccc(S(=O)(=O)N(CC(C)C)C[C@@H](O)[C@H](Cc2ccccc2)NC(=O)O[C@H]2CO[C@H]3OCC(F)(F)[C@H]32)cc1 | Clinical isolate | L10I I15V K20R L24I M36I M46L I54V I62V L63P K70Q V82A L89M | clinical isolate, multidrug-resistant | PBMC | 0.002 µM

Again, the opening 8 rows:

SMILES	strain or isolate	changes	setting	cell line	value
CC(C)(C)NC(=O)[C@@H]1C[C@@H]2CCCC[C@@H]2CN1C[C@@H](O)[C@H](Cc1ccccc1)NC(=O)[C@H](CC(N)=O)NC(=O)c1ccc2ccccc2n1	NL4-3	L10F V32I M46I I45M A71V I84V APV resistant		MT-4	0.09 µM
Cc1cn([C@@H]2O[C@H](CO[Si](C)(C)C(C)(C)C)C3(OS(=O)(=O)C=C3N)[C@H]2O[Si](C)(C)C(C)(C)C)c(=O)n(CCBr)c1=O					0.03–0.76 µM
Cc1cn([C@H]2C=C[C@@H](CO)O2)c(=O)[nH]c1=O				MM + M/M	0.25 µM
NC(=O)c1cnnn1C1OC(CO)C(O)C1F					>100 µM
CC(C)c1cc(=O)oc2c3c(c4c(c12)OC(C)(C)C=C4)OC(C)C(C)C3=O	RF			CEM + CEM-SS	5.57 µM
O=C(O)P(=O)(O)O	HX88C (RT-W88C)	RT-W88C		HT4LACZ-1 + HT4 LacZ-1	49.5 µM
CC(C)c1cc2c(c(O)c1O)[C@@]1(C(=O)O)CCCC(C)(C)C1CC2	clinical isolate 1(A MDR X4)	PR-L10I I15V E35D N37E K45R I54V L63P A71V V82T L90M I93L C95F		PBMC	>1 µM
CC1=C(C(=O)Nc2ccc(Cl)c(C(=O)OC(C)C)c2)SCCO1	RF			CEM + CEM-SS	0.18 µM